From PMC11426533 (PLOS Pathogens, 2024) come the findings set out here.

The data set concerns CC(=O)N[C@H]1[C@H](Oc2ccc3c(C)cc(=O)oc3c2)O[C@H](CO)[C@@H](O[C@@H]2O[C@H](CO)[C@@H](O)[C@H](O)[C@H]2NC(C)=O)[C@@H]1O. Briefly: purified protein. Particulars: pH 5.0; 37.0 °C.

ChiA (Clostridium perfringens): the Km (as a rule, the concentration of substrate that gives half-maximal velocity) is 145.8 ± 91.3 µM and the kcat/Km (in general, the turnover number divided by the Michaelis constant) was 21000 M⁻¹ s⁻¹.
